Results on one molecule are retold here after paper PMC2757719, “EBNA1-Mediated Recruitment of a Histone H2B Deubiquitylating Complex to the Epstein-Barr Virus Latent Origin of DNA Replication” (PLoS Pathogens, 2009).

The target of this test is T1, EBNA1 truncation mutant […] (Epstein-Barr virus).
T1 construct: EBNA1 of Epstein-Barr virus, […], amplified from pc3oriPEBNA1; also called EBNA1_([…]); EBNA_([…]); source: E. coli BL21 pLysS (pET15b), purified (Ni-NTA Agarose)
Briefly: native gel or EMSA; EBNA1 fragment titrated, preincubated with 10 pmols USP7 or USP7-NTD 10 min at RT before 10 fmoles 32P-labelled DS site 1 DNA (or EBNA1-DNA preformed, then rising USP7, Figure 2C); 20 mM Tris pH 7.5, 200 mM NaCl, 1 µg salmon sperm DNA, 20 µl; 10% polyacrylamide gel; read-out: supershift of the EBNA1-DNA complex. The settings on record: both partners purified. For orientation: In EMSA bound probe runs differently from free probe, usually more slowly.

B1: USP7-NTD (N-terminal TRAF domain of USP7, amino acids 56–205) (domain or fragment, human, UniProt Q93009 56-205, looked up)
chain: EEDMEDDTSWRSEATFQFTVERFSRLSESVLSPPCFVRNLPWKIMVMPRFYPDRPHQKSVGFFLQCNAESDSTSWSCHAQAVLKIINYRDDEKSFSRRISHLFFHKENDWGFSNFMAWSEVTDPEKGFIDDDKVTFEVFVQADAPHGVAW
notes: USP7 N-terminal TRAF domain, human, amino acids 56-205; also called USP-NTD; N-terminal domain of USP7
B1: the binding result is “binds”.
